The test concerns the target A/Vietnam/1203/2004 H5N1 HA globular head (D55-E271), wild type (Influenza A virus A/Vietnam/1203/2004 …, strain).

B1: FLD21.140 (full-length human IgG1) (antibody, V domains shown)
VH: QVQLQESGPGLVKPSQTLSLTCTVSGGSISSGTYYWSWIRHHPGKGLEWIGYIYHSGSAYYNPSLESRVTMSVDTSKNQFSLKLSSVTAADTAIYYCARAENLLSPYLAEGFDPWGQGTLVTVSS
VL: QSVLTQPPSASGTPGQRVTISCSGSTSNIGSNAVNWYQQLPGTAPKLLIYSNNQRPSGVPDRFSGSKSGTSASLAISGLQSEDEADYYCAAWDDSLSGSWVFGGGTKLTVL
The Kd is the free concentration of one partner at which half of the binding sites on the other are occupied at equilibrium, for simple one-to-one binding. Lower therefore signals tighter binding. B1 registered a Kd of 0.0821 nM.

For the origin of these results see paper PMC6200926 (The Journal of Biological Chemistry, 2018).
